Results of unrelated studies side by side (data: NIAID ChemDB).

All rows: growth or infection tests; organism: Staphylococcus aureus; read-out: MIC

Lines come from different laboratories, so protocols vary. An empty or dashed field is not shown.

SMILES	strain	value
CC[C@H]1OC(=O)[C@H](C)C(=O)[C@H](C)[C@@H](O[C@@H]2O[C@H](C)C[C@H](N(C)C)[C@H]2O)[C@@]2(C)C[C@@H](C)C(=O)[C@H](C)C(OC/C=C/CO2)[C@]1(C)O	33591 (erythromycin methicillin-resistant)	>64 µg/mL
O=C(NC[C@H]1CN(c2ccc3c(c2)-n2cccc2COC3)C(=O)O1)C(Cl)Cl	ATCC 49951 (SMITH)	4 µg/mL
CO/N=C1\CN(c2nc3c(cc2F)c(=O)c(C(=O)O)cn3C2CC2)CC1CN	KU2246	0.125 µg/mL
CC[C@H]1OC(=O)[C@H](C)[C@@H](O[C@H]2C[C@@](C)(OC)[C@@H](O)[C@H](C)O2)[C@H](C)[C@@H](O[C@H]2O[C@@H](C)C[C@@H](N(C)C)[C@@H]2O)[C@](C)(O)C[C@@H](C)C(=O)[C@H](C)[C@@H](O)[C@]1(C)O	27660 (erythromycin-resistant)	>64 µg/mL
CS(=O)(=O)N[C@H]1CCN(c2ccc(N3C[C@H](COc4cnsn4)OC3=O)cc2F)C1	004 (methicillin quinolone-resistant)	0.5 µg/mL
O=CNC[C@H]1CN(c2ccc3c(c2)-n2cccc2COC3)C(=O)O1	ATCC 33591 (MRSA)	8 µg/mL
Nc1nc(-n2cc(C(=O)O)c(=O)c3cc(F)c(N4CCNCC4)c(F)c32)c(F)cc1F	209P	0.1 µg/mL
C=C1COC2[C@@H](C)C(=NC(C)=O)[C@H](C)C[C@@](C)(OC1)[C@H](O[C@@H]1O[C@H](C)C[C@H](N(C)C)[C@H]1O)[C@@H](C)C(=O)[C@@H](C)C(=O)O[C@H](CC)[C@@]2(C)O	25923 (erythromycin-susceptible)	1 µg/mL
CCn1cc(C(=O)O)c(=O)c2cc(F)c(N3CCNCC3)cc21		0.3 µg/mL
C[C@H]1COc2c(N3CCN(C)CC3)c(F)cc3c(=O)c(C(=O)O)cn1c23	OC667 (methicillin-resistant)	0.25 µg/mL
Nc1cn(-c2ccc(N3C[C@H](COc4ccccn4)OC3=O)cc2F)cn1	078 (oxford)	2 µg/mL
CC[C@H]1OC(=O)[C@H](C)C(=O)[C@H](C)[C@@H](O[C@@H]2O[C@H](C)C[C@H](N(C)C)[C@H]2O)[C@](C)(OC)C[C@@H](C)C(=O)[C@H](C)[C@H]2N(CCCCn3cnc(-c4cccnc4)c3)C(=O)O[C@]12C	33591 (erythromycin-resistant)	>64 µg/mL
CC(=O)NC[C@H]1CN(c2ccc(OC3CCN(C(=O)COCc4ccncc4)CC3)c(F)c2)C(=O)O1	OC4172 methicillin-susceptible	16 µg/mL
Nc1nc(-n2cc(C(=O)O)c(=O)c3cc(F)c(N4CC(O)C4)cc32)c(F)cc1F	209P	0.05 µg/mL
CC(=O)NC[C@H]1CN(c2ccc(N(C)C=O)c(F)c2)C(=O)O1	ATCC 29213 (linezolid-resistant)	>64 µg/mL
COC(CN(C)c1cc2c(cc1F)c(=O)c(C(=O)O)cn2C1CC1)OC	ATCC 5278 (methicillin-resistant)	3.12 µg/mL
Cc1c(NC(C)C)c(F)cc2c(=O)c(C(=O)O)cn(-c3cc(N)c(F)cc3F)c12	SMITH	0.004 µg/mL
C=C1COC2[C@@H](C)C(=O)[C@H](C)C[C@@](C)(OC1)[C@H](O[C@@H]1O[C@H](C)C[C@H](N(C)C)[C@H]1O)[C@@H](C)C(=O)[C@@H](C)C(=O)O[C@H](CC)[C@@]2(C)O	33591 (erythromycin methicillin-resistant)	>64 µg/mL
CC(=O)NC[C@H]1CN(c2ccc(-n3cnc(C=CC#N)c3)c(F)c2)C(=O)O1	Methicillin- and quinolone-resistant	1 µg/mL
CC[C@H]1OC(=O)[C@H](C)C(=O)[C@H](C)[C@@H](O[C@@H]2O[C@H](C)C[C@H](N(C)C)[C@H]2O)[C@@]2(C)C[C@@H](C)C(=NC(C)=O)[C@H](C)[C@@H](OC/C(=N\OCc3ccc4nc(N)sc4c3)CO2)[C@]1(C)O	27660 (erythromycin-resistant)	<0.06 µg/mL
O=C1O[C@@H](CNc2ccon2)CN1c1ccc(-n2ccnc2)c(F)c1	004 (methicillin quinolone-resistant)	0.5 µg/mL
CCc1cc(Nc2cc(=O)n(CCCO)c(=O)[nH]2)ccc1C		8 µg/mL
CC[C@H]1OC(=O)[C@H](C)C(=O)[C@H](C)[C@@H](O[C@@H]2O[C@H](C)C[C@H](N(C)C)[C@H]2O)[C@@]2(C)C[C@@H](C)C(=NC(C)=O)[C@H](C)C(OC/C(=N\OCc3ccccc3)CO2)[C@]1(C)O	25923 (erythromycin-susceptible)	0.25 µg/mL
CC(=O)NC[C@H]1CN(c2ccc(NC(=O)c3ccc([N+](=O)[O-])s3)c(F)c2)C(=O)O1	ATCC 29213 (linezolid-resistant)	>64 µg/mL
CC(=O)NC[C@H]1CN(c2ccc(OC3CCN(C(=O)COCc4cccnc4)CC3)c(F)c2)C(=O)O1	OC4172 methicillin-susceptible	16 µg/mL
CC[C@H]1OC(=O)[C@H](C)C(=O)[C@H](C)[C@@H](O[C@@H]2O[C@H](C)C[C@H](N(C)C)[C@H]2O)[C@@]2(C)C[C@@H](C)C(=NC(C)=O)[C@H](C)[C@@H](OC/C(=N\OCc3cccc(N)n3)CO2)[C@]1(C)O	33591 (erythromycin methicillin-resistant)	>64 µg/mL
CCCNCCNc1cc2c(cc1F)c(=O)c(C(=O)O)cn2C1CC1	ATCC 6538P	>100 µg/mL
N#Cc1ccc(N2CCN(c3ccc(N4C[C@H](COc5cnccn5)OC4=O)cc3F)CC2)nn1	004 (methicillin quinolone-resistant)	1 µg/mL
CNC(=O)CC1NC(=O)c2nc(sc2COC)C(C(C)C)NC(=O)c2csc(n2)-c2ccc(-c3nc(C4=NC(C(=O)N5CCCC5C(N)=O)CO4)cs3)nc2-c2csc(n2)-c2csc(n2)C(C(O)c2ccccc2)NC(=O)CNC(=O)c2nc1sc2C	ATCC 29213 (linezolid-resistant)	64 µg/mL
CCCC/C=C/C(=O)NC[C@H]1CN(c2ccc3c(c2)-n2cccc2COC3)C(=O)O1	ATCC 49951 (SMITH)	>32 µg/mL
CC(=O)NC[C@H]1CN(c2ccc(NS(C)(=O)=O)c(F)c2)C(=O)O1	ATCC 29213 (linezolid-resistant)	>64 µg/mL
CC[C@H]1OC(=O)[C@H](C)C(=O)[C@H](C)[C@@H](O[C@@H]2O[C@H](C)C[C@H](N(C)C)[C@H]2O)[C@@]2(C)C[C@@H](C)C(=NC(C)=O)[C@H](C)[C@@H](OC/C(=N\OCC#Cc3cncnc3)CO2)[C@]1(C)O	33591 (erythromycin methicillin-resistant)	>64 µg/mL
CC(=O)NC[C@H]1CN(c2ccc(NC(=O)c3ccco3)c(F)c2)C(=O)O1	ATCC 29213 (linezolid-resistant)	>64 µg/mL
CCC(=O)NC[C@H]1CN(c2ccc3c(c2)-n2cccc2COC3)C(=O)O1	ATCC 33591 (MRSA)	4 µg/mL
Nc1nc(-n2cc(C(=O)O)c(=O)c3cc(F)c(N4CC(O)C4)c(Cl)c32)c(F)cc1F	209P	0.013 µg/mL
CCc1cc(Nc2cc(=O)n(CC3CCN(C(=O)c4ccc(C(F)(F)F)o4)CC3)c(=O)[nH]2)ccc1C		4 µg/mL
Nc1nc(-n2cc(C(=O)O)c(=O)c3cc(F)c(N4CC(O)C4)c(Br)c32)c(F)cc1F	209P	0.39 µg/mL
CCNCCNc1cc2c(cc1F)c(=O)c(C(=O)O)cn2C1CC1	ATCC 6538P	>100 µg/mL
O=C(CCl)NC[C@H]1CN(c2ccc3c(c2)-n2cccc2COC3)C(=O)O1	ATCC 33591 (MRSA)	1 µg/mL
CC[C@H]1OC(=O)[C@H](C)C(=O)[C@H](C)[C@@H](O[C@@H]2O[C@H](C)C[C@H](N(C)C)[C@H]2O)[C@@]2(C)C[C@@H](C)C(=NC(C)=O)[C@H](C)[C@@H](OC/C(=N\OCCCc3ccccc3)CO2)[C@]1(C)O	25923 (erythromycin-susceptible)	0.5 µg/mL
CNCCCN(C)c1cc2c(cc1F)c(=O)c(C(=O)O)cn2C1CC1	ATCC 6538P	1.56 µg/mL
CC[C@H]1OC(=O)[C@H](C)C(=O)[C@H](C)[C@@H](O[C@@H]2O[C@H](C)C[C@H](N(C)C)[C@H]2O)[C@@]2(C)C[C@@H](C)C(=NC(C)=O)[C@H](C)C(OC/C(=N\OCC#Cc3cccc(N)n3)CO2)[C@]1(C)O	33591 (erythromycin methicillin-resistant)	>64 µg/mL
CC(=O)NC[C@H]1CN(c2ccc(OC3CCN(C(=O)COCc4ccccc4)CC3)c(F)c2)C(=O)O1	OC4172 methicillin-susceptible	4 µg/mL
Cc1c(N)c(F)cc2c(=O)c(C(=O)O)cn(-c3cc(N)c(F)cc3F)c12	MR8736 (methicillin-resistant)	8 µg/mL
COCC(=O)N1CCC(Oc2ccc(N3C[C@H](CNC(C)=O)OC3=O)cn2)CC1	OC4172 methicillin-susceptible	>64 µg/mL
CC[C@H]1OC(=O)[C@H](C)C(=O)[C@H](C)[C@@H](O[C@@H]2O[C@H](C)C[C@H](N(C)C)[C@H]2O)[C@@]2(C)C[C@@H](C)C(=NC(C)=O)[C@H](C)[C@@H](OC/C(=N\Oc3ccc(-c4nnc(N)s4)cc3)CO2)[C@]1(C)O	33591 (erythromycin methicillin-resistant)	>64 µg/mL
Cc1c(NC2CC2)c(F)cc2c(=O)c(C(=O)O)cn(-c3cc(N)c(F)cc3F)c12	W200 (methicillin-resistant)	0.015 µg/mL
CCc1cc(Nc2cc(=O)n(CCCC(=O)N(C)Cc3ccco3)c(=O)[nH]2)ccc1C		8 µg/mL
CN1CCN(C)c2cc3c(cc21)c(=O)c(C(=O)O)cn3C1CC1	ATCC 6538P	>100 µg/mL
CC(=O)NC[C@H]1CN(c2ccc3c(c2)OCc2nccn2-3)C(=O)O1	9TV	0.25 µg/mL
CC(=O)NCC(=O)N1CCC(Oc2ccc(N3C[C@H](CNC(C)=O)OC3=O)cc2F)CC1	OC2878 methicillin-resistant	16 µg/mL
O=C(O)c1cn(C2CC2)c2cc(NCCN3CCCC3)c(F)cc2c1=O	ATCC 5278 (methicillin-resistant)	1.56 µg/mL

A second listing of 6 rows from above:

CC[C@H]1OC(=O)[C@H](C)C(=O)[C@H](C)[C@@H](O[C@@H]2O[C@H](C)C[C@H](N(C)C)[C@H]2O)[C@@]2(C)C[C@@H](C)C(=O)[C@H](C)C(OC/C=C/CO2)[C@]1(C)O ; strain: 33591 (erythromycin methicillin-resistant) ; value: >64 µg/mL
C=C1COC2[C@@H](C)C(=NC(C)=O)[C@H](C)C[C@@](C)(OC1)[C@H](O[C@@H]1O[C@H](C)C[C@H](N(C)C)[C@H]1O)[C@@H](C)C(=O)[C@@H](C)C(=O)O[C@H](CC)[C@@]2(C)O ; strain: 25923 (erythromycin-susceptible) ; value: 1 µg/mL
CO/N=C1\CN(c2nc3c(cc2F)c(=O)c(C(=O)O)cn3C2CC2)CC1CN ; strain: KU2246 ; value: 0.125 µg/mL
COCC(=O)N1CCC(Oc2ccc(N3C[C@H](CNC(C)=O)OC3=O)cn2)CC1 ; strain: OC4172 methicillin-susceptible ; value: >64 µg/mL
CCc1cc(Nc2cc(=O)n(CC3CCN(C(=O)c4ccc(C(F)(F)F)o4)CC3)c(=O)[nH]2)ccc1C ; value: 4 µg/mL
Nc1nc(-n2cc(C(=O)O)c(=O)c3cc(F)c(N4CCNCC4)c(F)c32)c(F)cc1F ; strain: 209P ; value: 0.1 µg/mL